# Data as given in PubChem BioAssay AID624099 (ICCB-Longwood, 2012)
# Aim: 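Host factors E2 relies on to silence an HPV18 LCR reporter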 (primary screen)
# Cells: human C33A cervical carcinoma cells (HPV-negative) stably expressing BPV1 E2 and an HPV18 LCR luciferase reporter
# Reagent: siRNA pool against human genes, 40 nM
# Time to read-out: 72 h
# Read-out: 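Per-well luciferase luminescence, z-scored on each plate against the plate mean and SD with control wells left out, then averaged across three replicate plates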
# Direction: mean z-score and z-score: higher = stronger reporter signal, weaker E2 silencing
# Rule for the call: 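Hit if mean z-score reaches 2 and two or more of three replicate z-scores also reach 2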
# In all, the deposit lists about 21,000 reagents; below is a part drawn at random. In the full data, 497 (2.4%) were called active. 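Higher z means weaker E2 silencing; only reporter increases were scored, and knock-downs that hurt cell survival may mask genuine repressor factors.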 No sequences are given here.
gene,PubChem SID,mean z-score,"z-score, replicate A","z-score, replicate B","z-score, replicate C",outcome
BRCA2,SID134309909,0.42,0.43,0.22,0.6,inactive
IFI44,SID134320364,-0.36,-0.26,-0.41,-0.42,inactive
ELK1,SID134310131,1.17,1.13,1.14,1.23,inactive
IL23A,SID134312909,0.8,1.31,0.42,0.68,inactive
HCCAT5,SID134325443,0.22,0.31,0.15,0.19,inactive
NAA50,SID134318712,0.08,0.08,-0.1,0.26,inactive
TMEM255B,SID134322755,0.97,1.17,0.8,0.94,inactive
ICAM2,SID134315540,0.34,0.4,0.28,0.33,inactive
SNX6,SID134321488,-2.01,-2.26,-2.4,-1.37,inactive
NTAQ1,SID134324710,1.8,1.97,1.72,1.69,inactive
MAPK11,SID56478748,-0.51,-0.64,-0.44,-0.44,inactive
MRPL42,SID134321484,-1.8,-1.68,-1.81,-1.9,inactive
MAGEE1,SID134318365,-0.68,-0.52,-0.66,-0.85,inactive
ATP6V0E2,SID134326337,-1.2,-1.4,-0.99,-1.2,inactive
CLEC16A,SID134325405,-0.24,-0.47,-0.45,0.21,inactive
F2RL3,SID134310937,0.31,0.3,0.28,0.36,inactive
HAUS2,SID134324766,-2.3,-2.49,-2.13,-2.28,inactive
HSPB9,SID134313843,0.09,0.14,-0.06,0.2,inactive
SPATA1,SID134318230,0.19,0.48,0.16,-0.07,inactive
YIPF1,SID134320879,0.34,0.29,0.56,0.18,inactive
PPBP,SID134312992,-0.38,-0.34,-0.56,-0.25,inactive
PTBP1,SID134309937,0.68,0.59,0.85,0.59,inactive
MRPL21,SID134322886,0.05,-0.14,0.05,0.23,inactive

4 consecutive records already listed, for reference:
gene,PubChem SID,mean z-score,"z-score, replicate A","z-score, replicate B","z-score, replicate C",outcome
HSPB9,SID134313843,0.09,0.14,-0.06,0.2,inactive
SPATA1,SID134318230,0.19,0.48,0.16,-0.07,inactive
YIPF1,SID134320879,0.34,0.29,0.56,0.18,inactive
PPBP,SID134312992,-0.38,-0.34,-0.56,-0.25,inactive
